Source: patent US20040191887A1 (WISCONSIN ALUMNI RESEARCH FOUNDATION, published 2004)
Where two headings read alike, the source gives them in different places.

Legend:
botulinum neurotoxin B [1] = molecular target: T1, botulinum neurotoxin B (Clostridium botulinum, UniProt P10844 2-441; P10844 442-1291); test: cell-based or functional assay
botulinum neurotoxin B [2] = molecular target: T1, botulinum neurotoxin B
botulinum neurotoxin B [3] = molecular target: T1, botulinum neurotoxin B; test: GST pull-down, immunoblot (FIG. 8)
botulinum neurotoxin B [4] = molecular target: T1, botulinum neurotoxin B; test: immunofluorescence of fragment aggregates on syt II+ PC12 cells (FIG. 5A)

B1: His6-syt II 1-267 (receptor)
chain: MRNIFKRNQEPNVAPATTTATMPLAPVAPADNSTESTGPGESQEDMFAKLKEKFFNEINKIPLPPWALIAMAVVAGLLLLTCCFCICKKCCCKKKKNKKEKGKGMKNAMNMKDMKGGQDDDDAETGLTEGEGEGEEEKEPENLGKLQFSLDYDFQANQLTVGVLQAAELPALDMGGTSDPYVKVFLLPDKKKKYETKVHRKTLNPAFNETFTFKVPYQELAGKTLVMAIYDFDRFSKHDIIGEVKVPMNTVDLGQPIEEWRDLQGGE
- efficacy of protection of syb II from cleavage, with versus without gangliosides (botulinum neurotoxin B [1]): ~3 fold

B2: GST fusion of rat synaptotagmin IV lacking the C2B domain (receptor)
chain: MAPITTSRVEFDEIPTVVGIFSAFGLVFTVSLFAWICCQRRSAKSNKTPPYKFVHVLKGVDIYPENLSSKKKFGGDDKSEAKRKAALPNLSLHLDLEKRDLNGNFPKTNPKAGSSSDLENVTPKLFPETEKEAVSPESLKSSTSLTSEEKQEKLGTLFLSLEYNFEKKAFVVNIKEAQGLPAMDEQSMTSDPYIKMTILPEKKHKVKTRVLRKTLDPVFDETFTFYGVPYPHIQELSLHFTVLSFDRFSRDDVIGEVLVPLSGIELSDGKMLMTREIIKR
- binding result (botulinum neurotoxin B [2]): no binding (tested: 30 nM)

B3: GST-syt I 1-53 (isolated luminal domain of syt I) (receptor)
chain: MVSASHPEALAAPVTTVATLVPHNATEPASPGEGKEDAFSKLKQKFMNELHKI
- binding result (botulinum neurotoxin B [3]): no binding

B4: His6-syt II 61-267 (receptor)
chain: IPLPPWALIAMAVVAGLLLLTCCFCICKKCCCKKKKNKKEKGKGMKNAMNMKDMKGGQDDDDAETGLTEGEGEGEEEKEPENLGKLQFSLDYDFQANQLTVGVLQAAELPALDMGGTSDPYVKVFLLPDKKKKYETKVHRKTLNPAFNETFTFKVPYQELAGKTLVMAIYDFDRFSKHDIIGEVKVPMNTVDLGQPIEEWRDLQGGE
- binding result (botulinum neurotoxin B [4]): no binding (tested: 30 nM BoNT/B, 960 nM fragment)
